According to ChEMBL document CHEMBL4385601, “Anti-Zika Activity of a Library of Synthetic Carbohydrate Receptors” (J Med Chem, 2019):

The compounds below were run on Zika virus (assay: Antiviral activity against Zika virus harboring subgenomic GFP replicon infected in African green monkey Vero cells assessed as reduction in viral infection preincubated for 30 mins followed by viral infection and measured after 72 hrs).
In the case of `[N-]=[N+]=NCc1cc(CN=[N+]=[N-])cc(-c2cc(CN=[N+]=[N-])cc(Cn3cc(COCCOCc4cn(Cc5cc(CN=[N+]=[N-])cc(-c6cc(CN=[N+]=[N-])cc(CN=[N+]=[N-])c6)c5)nn4)nn3)c2)c1`, the IC50 is reported as > 100 µM. In the case of `[N-]=[N+]=NCc1cc(CN=[N+]=[N-])cc(-c2cc(CN=[N+]=[N-])cc(CN=[N+]=[N-])c2)c1`, the IC50 is reported as > 100 µM. For `[N-]=[N+]=NCc1cc(CN=[N+]=[N-])cc(-c2cc(CN=[N+]=[N-])cc(Cn3cc(COCCOCCOCCOCCOCCOCc4cn(Cc5cc(CN=[N+]=[N-])cc(-c6cc(CN=[N+]=[N-])cc(CN=[N+]=[N-])c6)c5)nn4)nn3)c2)c1`, the IC50 was > 100 µM. For `[N-]=[N+]=NCc1cc(CN=[N+]=[N-])cc(-c2cc(CN=[N+]=[N-])cc(Cn3cc(COCCOCCOCCOCc4cn(Cc5cc(CN=[N+]=[N-])cc(-c6cc(CN=[N+]=[N-])cc(CN=[N+]=[N-])c6)c5)nn4)nn3)c2)c1`, the IC50 was > 100 µM.
